Publication PMC6265244, “A synthetic microbial biosensor for high-throughput screening of lactam biocatalysts” (Nature Communications, 2018)

Test system: NCCCCCC(=O)O
Assay: purified protein
Details: 50 mM HEPES pH 7.5, 35 °C, 10 min, no cofactor or metal, cyclization to ε-caprolactam

## CF3HBD (Citrobacter freundii; Y152A)
  Km: 2900 ± 100 µM
  kcat: 0.00347 s⁻¹
  kcat/Km: 1.22 M⁻¹ s⁻¹
